PMC12274840 (The Journal of Biological Chemistry, 2025)

Assay type: physicochemical
Conditions: compared to wild-type counterpart

BlaC I105R
ΔTm: +1 °C
